Test [1] concerns the target T1, Human immunodeficiency virus type 1 integrase (Human immunodeficiency virus 1, UniProt Q7ZJM1). The test can be described thus: Inhibition of HIV1 integrase strand transfer activity.
The target in test [2] is T1, Human immunodeficiency virus type 1 integrase. Put plainly: Inhibition of HIV1 integrase 3'-end processing activity.

The chains behind the UniProt entries cited, without tags or fusion partners. Residues count along the entry.
UniProt Q7ZJM1, 1-288: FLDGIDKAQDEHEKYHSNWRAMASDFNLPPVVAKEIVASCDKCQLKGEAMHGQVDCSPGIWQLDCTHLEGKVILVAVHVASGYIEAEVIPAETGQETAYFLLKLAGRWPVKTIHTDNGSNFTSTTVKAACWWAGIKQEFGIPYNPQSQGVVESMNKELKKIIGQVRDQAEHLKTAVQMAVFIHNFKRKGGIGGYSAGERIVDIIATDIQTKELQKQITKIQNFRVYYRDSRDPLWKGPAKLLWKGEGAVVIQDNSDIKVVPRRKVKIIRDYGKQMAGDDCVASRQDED

Structures are written as SMILES.

`CC(C)CN1C(N/N=C/c2cc(Br)ccc2O)=NC2C1C(=O)NC(=O)N2C` (configuration not stated): the figures for the IC50 in test [1] and in test [2] were 53 µM and 65 µM, respectively.

What is called IC50 is the concentration that gives 50% inhibition. Low values mean greater potency in that assay, high ones weaker potency in that assay.

For the origin of these results see ChEMBL document CHEMBL1139988, “Discovery of structurally diverse HIV-1 integrase inhibitors based on a chalcone pharmacophore” (Bioorg Med Chem, 2007).
